Source: paper PMC6598307, “Directed evolution of a genetically encoded immobilized lipase for the efficient production of biodiesel from waste cooking oil” (Biotechnology for Biofuels, 2019)

Tested on: CCCCCCCCCCCCCCCC(=O)Oc1ccc([N+](=O)[O-])cc1
Assay: purified protein
Conditions: soluble free enzyme, 0.1 M NaH2PO4 pH 7.0, 25 °C, 1 nM enzyme, pNPP 0-2.25 mM, pNPP stock in MeCN:Triton X-100 1:1

Proteus mirabilis lipase (PML), soluble (Proteus mirabilis HI4320; E130G/I118V)
Km: 234 ± 51 µM | kcat: 59.2 s⁻¹ | kcat/Km: 253000 M⁻¹ s⁻¹
